Like-named read-outs stand apart in the source and are kept apart here.
How the values were obtained:
HIV-1 = conditions: for HIV in vitro Inhibition: inhibition of HIV-1 replication in vitro (HIV-1 strains and HIV-1 primary isolates)
Excerpt: To prepare HIV infected cells for the in vitro assay of hCG preparations and β-hCG peptides and derivatives, primary PBMCs, macrophages, and CD4^+ T cells isolated from peripheral blood and the H9 human T cell line, were acutely or chronically infected with 8 different HIV-1 strains: 4 cell line adapted viruses, namely the macrophage tropic Ba-L strain (Gartner et al., 1986, Science 233:215-219) and the CD4^+ T cell tropic MN, RF, and IIIB strains (10^5 TCID50/ml) (Popovic et al., 1984, Science […]; Gallo et al.; 1984, Science 224:500-503); 2 isolates, Ju1083 and G3, from Nigerian AIDS patients passed once in a CD4^+ T cell line (Sub-T1); and 2 primary (“clinical”) isolates from AIDS patients from Trinidad which were never passed in any cell line and were used at a titer of 7.5×10^4TCID50/ml. In all experiments; HIV1 (10^5 TCID50/ml) was added to the cells(10^6 cells/ml) for a 2 hour incubation after which the virus infected cells were washed with 10 ml phosphate buffered saline (PBS) three times to eliminate extra cellular virus. The test inhibitor, i.e. the hCG or β-hCG peptide preparation was then added and the cells were incubated with the test inhibiter for 9 to 10 days with serial sampling. Cultures were assayed for p24 antigen on days 3 to 10.
Peptides of the α- and β-subunits (0.05 to 50 nmoles/ml), native α chain preparation, and various crude preparations of the native hCG heterodimer (0.01 to 1,000 IU) and the native β-hCG subunit (100 to 1,000 μg) were tested for effects on HIV-1 replication in acutely infected cells-by measuring change in viral antigen levels in response to the above noted preparations (FIGS. 4A-D and Table 3).
The fractions were then tested for anti-HIV, anti-KS and pro-hematopoietic activities in vitro. To assay for inhibition of HIV-1 replication in vitro, the HIV-1 […] viral strain was used to infect PBMCs and PM-1 cells (derived from the HUT-78 T-cell lymphoma cell line) at 10^3 TCID50/ml as described in detail herein.

HIV-1 transgenic mice = assay: Survival, growth and weight of HIV-1 transgenic mouse pups; format: in vivo; conditions: for survival at 10 days after birth: administered first 5 days after birth through mothers milk
Experimental: (§1) The HIV-1 transgenic mice used for this study contain 7.4 kb of foreign DNA, including 5.1 kb of the HIV-1 proviral genome deleted in the gag and pol genes and 2.3 kb of vector (Dickie et al., 1991, Virology 185:109-119). […] In addition, these mice develop severe hyperkeratotic skin lesions with marked expression of gp 120 and nef genes (Kopp et al., 1993, AIDS Res. Hum. Retroviruses 9:267-275; Vasli et al., 1994, AIDS Res. Hum. Retroviruses 10:1241-1250).
(§2) Finally, certain fractions were tested for their ability to increase survival, promote weight gain and reduce HIV-1 gene expression in HIV-1 transgenic mice as described herein.
HIV-I transgenic pups administered hCG and hCG-related preparations for the first 5 days after birth through the mothers milk were monitored for survival at 10 days after birth.

[1] = system: HIV RNA and protein expression; assay: HIV RNA and protein expression in HIV-1 transgenic mice; format: in vivo; conditions: for inhibition of HIV RNA and protein expression: inhibition of HIV RNA and protein expression in HIV-1 transgenic mice
Excerpt: as §1
Heterozygous transgenic mothers were treated with the hCG preparation subcutaneously twice weekly. Pups received hCG via the mother's milk.
Gene expression was assayed in total RNA extracted from the skin of Tg26 mice with RNAzol. One microgram of RNA was reverse transcribed into cDNA using random hexamer primers and […] reverse transcriptase (Life Technologies, MD) in a final volume of 30 μl. One tenth of the cDNA reactions were used for PCR amplification of various HIV gene sequences (env, tat, rev, nef and vif). In addition, glyceraldehyde 3-phosphate dehydrogenase (GAPHD) mRNA was amplified for each sample for normalization. Following 25 cycles of amplification, 10% of the PCR product was resolved by electrophoresis through 2% agarose gels and processed for Southern hybridization using FITC-labeled oligonucleotide probes complimentary to internal sequences of the amplicons. Detection was performed by chemiluminescence (Amersham) and relative mRNA levels determined by densitometry after normalization with GAPDH mRNA levels.
as §2

In the case of “CR1XY17B: mixture of highly purified α-hCG and β-hCG from NICHD, NIH [reference compound]”, the “inhibition of HIV-1 infection/replication in vitro (in words)” value (HIV-1) is reported as “little or no inhibition” and the “HIV in vitro Inhibition” value (HIV-1) is reported as “− (“−” represents less than 10% effect)”.

For “CR1XY17V: highly purified hCG preparation from NICHD, NIH [reference compound]”, the “HIV in vitro Inhibition” value (HIV-1) was “− (“−” represents less than 10% effect)”.

For “CR127: highly purified hCG preparation from NICHD, NIH [reference compound]”, the “inhibition of HIV-1 infection/replication in vitro (in words)” value (HIV-1) was “little or no inhibition”, the “HIV in vitro Inhibition” value (HIV-1) was “− (“−” represents less than 10% effect)” and the “survival at 10 days after birth” value (HIV-1 transgenic mice) was “failed to promote survival”.

In the case of LH: luteinizing hormone, the “survival at 10 days after birth” value (HIV-1 transgenic mice) is reported as “to a lesser extent”.

With “ORGANON: a highly purified hCG preparation obtained from Organon” the “HIV in vitro Inhibition” value (HIV-1) was “− (“−” represents less than 10% effect)”.

With “rhCG: recombinant hCG expressed in a mouse cell line (Sigma)” the “HIV in vitro Inhibition” value (HIV-1) was “− (“−” represents less than 10% effect)” and the “inhibition of HIV RNA and protein expression” value [1] was “− (“−” represents less than 10% effect)”.

“rαhCG: recombinant α subunit expressed in mouse cells (Sigma)” was tested, and the “HIV in vitro Inhibition” value (HIV-1) was “− (“−” represents less than 10% effect)” and the “inhibition of HIV RNA and protein expression” value [1] was “− (“−” represents less than 10% effect)”.

For “αfp1769A: purified, native α subunit (NICHD, NIH)”, the “HIV in vitro Inhibition” value (HIV-1) was “− (“−” represents less than 10% effect)”.

For “αhCG: purified native α subunit of hCG (Sigma)”, the “HIV in vitro Inhibition” value (HIV-1) was “− (“−” represents less than 10% effect)”, the “inhibition of HIV-1 infection/replication in vitro (in words)” value (HIV-1; listed as Native α-hCG) was “little or no effect” and the “inhibition of HIV RNA and protein expression” value [1] was “− (“−” represents less than 10% effect)”. For the same substance, the “HIV-1 gene / protein expression in transgenic mice (in words)” value ([1]; pups dosed via mother's milk) was “no effect”, the “weight gain / growth retardation and cachexia” value (HIV-1 transgenic mice; HIV-1 transgenic pups) was “no effect” and the “survival at 10 days after birth” value (HIV-1 transgenic mice) was “failed to promote survival”.
